A mixed list of measured activities; the numbers were collected in NIAID ChemDB.

All rows: host cell toxicity; cell line: CEM; read by: XTT; endpoint: CC50

Conditions beyond the fields shown may differ between rows.

Cc1cc2c(cc1Cl)SC(C(=O)c1ccccc1)=NS2(=O)=O ; result: 287.5 µM
O=C(c1cc2cc3c(cc2[nH]1)OCO3)N1CCN(C(=O)c2cc3cc4c(cc3[nH]2)OCO4)CC1 ; result: >200 µM
CCn1cc(C(=O)O)c(=O)c2cc(F)c(N3CCN(CN4C(=O)C(=Nc5ccc(S(=O)(=O)Nc6nc(C)cc(C)n6)cc5)c5cc(F)ccc54)CC3)cc21 ; result: 117 µM
Cc1cc(Cl)cc2c1S(=O)(=O)N=C(C(=O)c1ccc(Cl)c(Cl)c1)S2 ; result: >200 µM
C[C@]1(Br)C(=O)NC(=O)N([C@H]2C[C@H](F)[C@@H](CO)O2)[C@@H]1N=[N+]=[N-] ; result: 100 µM
COc1cc(Cc2cnc(/N=C3\C(=O)N(CN4CCN(C)CC4)c4ccc(F)cc43)nc2N)cc(OC)c1OC ; result: 115 µg/mL
Cc1ccnc2c1N(C(=O)CNC(=O)c1cnccn1)C(=O)c1cccnc1N2C1CC1 ; result: >200 µM
CO[C@@H]1N([C@H]2C[C@H](F)[C@@H](CO)O2)C(=O)NC(=O)[C@@]1(C)I ; result: 12.2 µM
Cc1cc(S(=O)(=O)n2cccc2)c(SCC(=O)n2cccc2)cc1Cl ; result: 86.5 µM
COc1nc2nc([C@@H](O)[C@@H](O)CO)cnc2c(=O)n1C ; result: >890 µM
O=C(NCc1ccc2c(c1)OCO2)c1cc2cc3c(cc2[nH]1)OCO3 ; result: >200 µM
COc1cc(Cc2cnc(/N=C3\C(=O)N(CN4CCN(c5ccc(Cl)cc5)CC4)c4ccc(F)cc43)nc2N)cc(OC)c1OC ; result: 95.6 µg/mL
COc1ccc(C(=O)CSc2cc(Cl)c(C)cc2S(=O)(=O)n2cccc2)cc1 ; result: 38.5 µM
CCN(CC)CN1C(=O)/C(=N\c2ncc(Cc3cc(OC)c(OC)c(OC)c3)c(N)n2)c2cc(F)ccc21 ; result: 116 µg/mL
COc1c(N2CCN(CN3C(=O)C(=Nc4ccc(S(=O)(=O)Nc5nc(C)cc(C)n5)cc4)c4cc(F)ccc43)C(C)C2)c(F)cc2c(=O)c(C(=O)O)cn(C3CC3)c12 ; result: 135 µM
Cc1cc(S(=O)(=O)N2CCNC2=O)c(SCC(N)=O)cc1Cl ; result: >200 µM
CCn1cc(C(=O)O)c(=O)c2cc(F)c(N3CCN(CN4C(=O)C(=Nc5ccc(S(=O)(=O)Nc6nc(C)cc(C)n6)cc5)c5cc(F)ccc54)C(C)C3)c(F)c21 ; result: 115 µM
NC(=O)CCNC(=O)c1ccccc1SCc1ccc(OP(=O)(O)O)cc1 ; result: >50 µM
O=C(NCCCN1CCN(CCCNC(=O)c2cc3cc(O)c(O)cc3[nH]2)CC1)c1cc2cc(O)c(O)cc2[nH]1 ; result: 88 µM
COc1nc(N)c(N=C[C@@H](O)[C@H](O)[C@H](O)CO)c(=O)n1C ; result: >220 µM
COc1ccc(N2CCN(CN3C(=O)C(=Nc4ccc(S(=O)(=O)Nc5nc(C)cc(C)n5)cc4)c4ccccc43)CC2)cc1 ; result: 34.8 µM
O=C(NCCCCNC(=O)c1cc2cc3c(cc2[nH]1)OCO3)c1cc2cc3c(cc2[nH]1)OCO3 ; result: >200 µM
Cc1cc(S(=O)(=O)n2cccc2)c(SC(C(=O)O)c2ccccc2)cc1Cl ; result: 31.8 µM
CO[C@H]1N([C@H]2C=C[C@@H](CO)O2)C(=O)NC(=O)[C@]1(C)Cl ; result: >1030 µM
Cc1ccnc2c1N(C(=O)CNNC(=O)c1ccncc1)C(=O)c1cccnc1N2C1CC1 ; result: >1000 µM
NC(=O)CCNC(=O)c1ccccc1S ; result: 741 µM
COc1cc(Cc2cnc(/N=C3\C(=O)N(CN4CCN(c5cccc(C(F)(F)F)c5)CC4)c4ccc(F)cc43)nc2N)cc(OC)c1OC ; result: 127 µg/mL
O=C(C1=NS(=O)(=O)c2ccc(Cl)cc2S1)c1ccc2ccccc2c1 ; result: 170 µM
COc1ccc(CCNC(=O)c2cc3cc4c(cc3[nH]2)OCO4)cc1OC ; result: >200 µM
CO[C@H]1N([C@H]2C=C[C@@H](CO)O2)C(=O)NC(=O)[C@]1(C)Br ; result: >128 µM

2 of the rows above, restated:

SMILES | result
COc1ccc(CCNC(=O)c2cc3cc4c(cc3[nH]2)OCO4)cc1OC | >200 µM
COc1cc(Cc2cnc(/N=C3\C(=O)N(CN4CCN(c5ccc(Cl)cc5)CC4)c4ccc(F)cc43)nc2N)cc(OC)c1OC | 95.6 µg/mL

CCn is the concentration with n% toxicity to the cells.